Data on one compound can be found in paper PMC9457997, “2-(Nitroaryl)-5-Substituted-1,3,4-Thiadiazole Derivatives with Antiprotozoal Activities: In Vitro and In Vivo Study” (Molecules, 2022).

The series has as its system L. donovani, strain MHOM-ET-67/L82 axenically grown amastigotes. Briefly: In vitro activity against L. donovani axenic amastigotes. The conditions noted are these: selectivity index. It is filed as cell-based. Here is the method: Miltefosine and benznidazole were used as reference drugs. […] In vitro activity against the protozoan parasites T. b. rhodesiense, T.cruzi, L. donovani and cytotoxicity assessment against L6 cells were determined as reported previously. The following strains, parasite forms, and positive controls were used: T. b. rhodesiense STIB 900 bloodstream forms, melarsoprol (received from WHO, Arsobal Sanofi); T.cruzi Tulahuen C2C4 intracellular amastigotes, benznidazole (received from DNDi synthesized by Epichem Pty Ltd., Murdoch, Australia); L. donovani MHOM-ET-67/L82 axenically grown amastigotes and intracellular amastigotes, miltefosine (Sigma M5571).

Regarding `Cn1c([N+](=O)[O-])cnc1-c1nnc(N2CCCCC2)s1` [Compound 18a], the “SI (IC50 in L6 cells/IC50 in L. donovani axenic amastigotes)” value is listed as >643.
